Columns and labels:
[1] = system: P. falciparum (strain W2) asexual blood stage parasites; assay: P. falciparum asexual blood stage (ABS) assay, high content imaging; assay type: cell-based, Plasmodium falciparum; settings: 72 h; for P. falciparum ABS (W2) pEC50: -log of EC50 in [M], mean ± SD of independent experiments
[2] = system: P. vivax liver schizonts; assay: P. vivax liver stage assay, radical cure mode: liver schizonts; assay type: cell-based, Plasmodium vivax; settings: for P. vivax schizont pEC50: -log of EC50 in [M], mean ± SD, radical cure mode
[3] = system: P. vivax hypnozoites; assay: P. vivax liver stage assay, radical cure mode: hypnozoites; assay type: cell-based, Plasmodium vivax; settings: for P. vivax hypnozoite pEC50: -log of EC50 in [M], mean ± SD, radical cure mode

Molecule | P. falciparum ABS (W2) pEC50 [1] | P. vivax schizont pEC50 [2] | P. vivax hypnozoite pEC50 [3] | EC50 ([1]; read-out: P. falciparum ABS (W2) EC50, ring stage parasites, geometric mean of three independent experiments) | EC50 ([2]; read-out: P. vivax schizont EC50, liver schizonts in primary human hepatocytes, treated days 5-7 postinfection, read day 12, two independent experiments) | EC50 ([3]; read-out: P. vivax hypnozoite EC50, mature hypnozoites in primary human hepatocytes, treated days 5-7 postinfection, read day 12, two independent experiments)
CC1=C[C@H]2O[C@@H]3C[C@@H](O)[C@](C)([C@@]2(CO)CC1)[C@@]31CO1 | 5.36 ± 0.20 | 5.00 ± 0.00 | 5.48 ± 0.68 | – | – | –
verrucarin A | 9.35 ± 0.04 | 8.39 ± 0.82 | 7.51 ± 0.11 | 0.45 nM | 4.07 nM | 30.9 nM
